Measurements: publication PMC6753193

The chains behind the UniProt entries cited, without tags or fusion partners. Residues count along the entry.
UniProt P62136, 7-300: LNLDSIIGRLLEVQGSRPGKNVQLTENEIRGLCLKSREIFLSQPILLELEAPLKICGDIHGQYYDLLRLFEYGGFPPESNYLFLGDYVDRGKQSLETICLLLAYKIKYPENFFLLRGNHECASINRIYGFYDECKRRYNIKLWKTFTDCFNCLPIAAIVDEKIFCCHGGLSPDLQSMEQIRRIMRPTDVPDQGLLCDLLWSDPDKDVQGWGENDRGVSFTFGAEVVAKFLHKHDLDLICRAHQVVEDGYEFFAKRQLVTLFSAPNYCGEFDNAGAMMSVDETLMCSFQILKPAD

Biological target: recombinant human PP1α (residues 7–300) (human) (UniProt P62136)
Test: SPR

Binder: HIPRSPYKFPSSPLRKKCCFHCQVCFITK (phosphoserine at the fifth residue, HIPR(pS)P (a single serine phosphorylated)) [pRb-Tat hybrid peptide]
- Kd: 155 nM
